test system: HRV-14; test: Antirhinoviral HI-HeLa Cell Culture Assay (Cell Protection Assay, XTT dye reduction); format: cell-based, human rhinovirus (HRV) serotype-14; settings: therapeutic index = CC50 divided by EC50; HRV-14, HI-HeLa
Description: In the Cell Protection Assay, the ability of compounds to protect cells against HRV infection was measured by the XTT dye reduction method. This method is described in Weislow, O. S., R. Kiser, D. L. Fine, J. Bader, R. H. Shoemaker, and M. R. Boyd, J. Natl. Cancer Inst. 1989, 81, 577-586, which is incorporated herein by reference.
HI-HeLa cells were infected with HRV-14 at a multiplicity of infection (m.o.i.) of 0.13 (virus particles/cell) or mock-infected with medium only. Infected or mock-infected cells were resuspended at 8×10^5 cells per mL and incubated with appropriate concentration of compounds of formulas I and II. Two days later, XTT/PMS was added to test plates and the amount of formazan produced was quantified spectrophotometrically at 450/650 nm. […] The therapeutic index (TI) was calculated by dividing the CC50 by the EC50.
All strains of human rhinovirus (HRV) for use in this assay were purchased from American Type Culture Collection (ATCC), except for HRV serotype-14, which was produced from the infectious cDNA clone, constructed and supplied to us by Dr. Roland Rueckert at the Institue for Molecular Virology, University of Wisconsin, Madison, Wisc. HRV stocks were propagated, and antiviral assays were perforemd in HI-HeLa cells (ATCC). Cells were grwon in Minimal Essential Medium, available from Life Technologies, with 10% fetal bovine serum.
The compounds were tested against control compounds WIN 51711, WIN 52084, and WIN 54954, all obtained from Sterling-Winthrop Pharmaceuticals, and control compound Pirodavir, obtained from Janssen Pharmaceuticals.

Row | SMILES | TI
1 | CC(C)C[C@H](NC(=O)OCc1ccccc1)C(=O)N[C@@H](Cc1ccccc1)C(=O)N[C@H](/C=C/C(=O)N1CCCO1)CCC(N)=O [Compound 79] | >7
2 | CC(C)C[C@H](NC(=O)OCc1ccccc1)C(=O)N[C@@H](Cc1ccccc1)C(=O)N[C@H](/C=C/C(=O)c1ccc(C#N)cc1)CCC(N)=O [Compound 80] | >6
3 | CC(C)C[C@H](NC(=O)OCc1ccccc1)C(=O)N[C@@H](Cc1ccccc1)C(=O)N[C@H](/C=C/C=O)CCC(N)=O [Compound 81] | 14
4 | CCOC(=O)/C(C)=C/[C@H](CCC(N)=O)NC(=O)[C@H](Cc1ccccc1)NC(=O)[C@H](CC(C)C)NC(=O)OCc1ccccc1 [Compound 82] | >107
5 | CON=C/C=C/[C@H](CCC(N)=O)NC(=O)[C@H](Cc1ccccc1)NC(=O)[C@H](CC(C)C)NC(=O)OCc1ccccc1 [Compound 83] | >3
6 | CC(C)C[C@H](NC(=O)OCc1ccccc1)C(=O)N[C@@H](Cc1ccccc1)C(=O)N[C@H](/C=C/C(=O)N1CCCCO1)CCC(N)=O [Compound 84] | >20
7 | CC(C)C[C@H](NC(=O)OCc1ccccc1)C(=O)N[C@@H](Cc1ccccc1)C(=O)N[C@H](/C=C/C(=O)N1CCc2ccccc21)CCC(N)=O [Compound 85] | >20
8 | CC(C)C[C@H](NC(=O)OCc1ccccc1)C(=O)N[C@@H](Cc1ccccc1)C(=O)N[C@H](/C=C/C(=O)N1CCc2cc([N+](=O)[O-])ccc21)CCC(N)=O [Compound 86] | >19
9 | CC(C)C[C@H](NC(=O)OCc1ccccc1)C(=O)N[C@@H](Cc1ccccc1)C(=O)N[C@H](/C=C/C(=O)N1CCc2cc(F)ccc21)CCC(N)=O [Compound 87] | >30
10 | CC(C)C[C@H](NC(=O)OCc1ccccc1)C(=O)N[C@@H](Cc1ccccc1)C(=O)N[C@H](/C=C/C(=O)N1CCc2cc(S(=O)(=O)N(C)C)ccc21)CCC(N)=O [Compound 88] | >18
11 | CC(C)C[C@H](NC(=O)OCc1ccccc1)C(=O)N[C@@H](Cc1ccccc1)C(=O)N[C@H](/C=C/C(=O)n1ccc2ccccc21)CCC(N)=O [Compound 89] | 16
12 | CC(C)CC(NC(=O)OCc1ccccc1)C(=O)NC(Cc1ccccc1)C(=O)NC(C=C1CCOC1=O)CCC(N)=O (stereo not drawn) [Compound 90] | >61
13 | CC(C)C[C@H](NC(=O)OCc1ccccc1)C(=O)N[C@@H](Cc1ccccc1)C(=O)N[C@H](/C=C/C(=O)N1CCc2cccc(Cl)c21)CCC(N)=O [Compound 91] | >6
14 | CC(C)C[C@H](NC(=O)OCc1ccccc1)C(=O)N[C@@H](Cc1ccccc1)C(=O)N[C@H](/C=C/C(=O)N1CCc2cc(Cl)ccc21)CCC(N)=O [Compound 92] | 10
15 | CC(C)C[C@H](NC(=O)OCc1ccccc1)C(=O)N[C@@H](Cc1ccccc1)C(=O)N[C@H](/C=C/C(=O)N1CCc2cc(Br)ccc21)CCC(N)=O [Compound 94] | >7
16 | CSc1cccc2c1N(C(=O)/C=C/[C@H](CCC(N)=O)NC(=O)[C@H](Cc1ccccc1)NC(=O)[C@H](CC(C)C)NC(=O)OCc1ccccc1)CC2 [Compound 96] | 5
17 | CCOC(=O)/C=C/[C@H](CCC(N)=O)NC(=O)CNC(=O)[C@H](CC(C)C)NC(=O)OCc1ccccc1 [Compound 99] | >2
18 | CCOC(=O)/C=C/[C@H](CCC(N)=O)NC(=O)[C@H](Cc1ccc(OC(C)=O)cc1)NC(=O)[C@H](CC(C)C)NC(=O)OCc1ccccc1 [Compound 100] | >29
19 | CCOC(=O)/C=C/[C@H](CCC(N)=O)NC(=O)[C@H](Cc1ccccc1)NC(=O)[C@H](C)NC(=O)OCc1ccccc1 [Compound 101] | >160
20 | CCOC(=O)/C=C/[C@H](CCC(N)=O)NC(=O)[C@H](Cc1ccccc1)NC(=O)CNC(=O)OCc1ccccc1 [Compound 102] | >57
21 | CCOC(=O)/C=C/[C@H](CCC(N)=O)NC(=O)[C@H](Cc1ccc(OC)cc1)NC(=O)[C@H](CC(C)C)NC(=O)OCc1ccccc1 [Compound 103] | >188
22 | CCOC(=O)/C=C/[C@H](CCC(N)=O)NC(=O)[C@H](Cc1ccccc1)NC(=O)[C@H](CC(C)C)NC(=O)c1ccc(Oc2ccccc2)cc1 [Compound 104] | >61
23 | CCOC(=O)/C=C/[C@H](CCC(N)=O)NC(=O)[C@H](Cc1ccc(OP(=O)(O)O)cc1)NC(=O)[C@H](CC(C)C)NC(=O)OCc1ccccc1 [Compound 105] | >23
24 | CCOC(=O)/C=C/[C@H](CCC(N)=O)NC(=O)[C@H](Cc1ccccc1)NC(=O)[C@H](CC(C)C)NC(=O)SCc1ccccc1 [Compound 106] | >1185
25 | CCOC(=O)/C=C/[C@H](CCC(N)=O)NC(=O)[C@H](Cc1ccccc1)NC(=O)[C@H](CC(C)C)NC(C)=O [Compound 107] | >23
26 | CCOC(=O)/C=C/[C@H](CCC(N)=O)NC(=O)[C@H](CC)NC(=O)[C@H](CC(C)C)NC(=O)OCc1ccccc1 [Compound 108] | >53

Row | SMILES | TI
27 | CCOC(=O)/C=C/[C@H](CCC(N)=O)NC(=O)[C@H](C)NC(=O)[C@H](CC(C)C)NC(=O)OCc1ccccc1 [Compound 109] | >16
28 | CCOC(=O)/C=C/[C@H](CCC(N)=O)NC(=O)[C@H](Cc1ccccc1)NC(=O)[C@H](CC(C)C)NC(=O)OC [Compound 110] | >246
29 | CCOC(=O)/C=C/[C@H](CCC(N)=O)NC(=O)[C@H](Cc1ccccc1)NC(=O)[C@H](CC(C)C)NC(=O)CO [Compound 111] | >11
30 | CCOC(=O)/C=C/[C@H](CCC(N)=O)NC(=O)[C@H](Cc1cnc[nH]1)NC(=O)[C@H](CC(C)C)NC(=O)OCc1ccccc1 [Compound 112] | >12
31 | CCOC(=O)/C=C/[C@H](CCC(N)=O)NC(=O)[C@H](Cc1ccc(CO)cc1)NC(=O)[C@H](CC(C)C)NC(=O)OCc1ccccc1 [Compound 114] | >582
32 | CCOC(=O)/C=C/[C@H](CCC(N)=O)NC(=O)[C@H](Cc1ccccc1)NC(=O)[C@H](CC(C)C)NC(=O)CCO [Compound 115] | >17
33 | CCOC(=O)/C=C/[C@H](CCC(N)=O)NC(=O)[C@H](Cc1ccccc1)NC(=O)[C@H](CC(C)C)NC(=O)C1CCCC1 [Compound 116] | >533
34 | CCOC(=O)/C=C/[C@H](CCC(N)=O)NC(=O)[C@H](Cc1ccccc1)NC(=O)[C@H](CC(C)C)NC(=O)C(C)C [Compound 117] | >320
35 | CCOC(=O)/C=C/[C@H](CCC(N)=O)NC(=O)[C@H](Cc1ccccc1)NC(=O)[C@H](CC(C)C)NC(=O)CSc1ccccn1 [Compound 118] | >18
36 | CCOC(=O)/C=C/[C@H](CCC(N)=O)NC(=O)[C@H](Cc1ccccc1)NC(=O)[C@H](CC(C)C)NC(=O)SC [Compound 119] | >291
37 | CCOC(=O)/C=C/[C@H](CCC(N)=O)NC(=O)[C@H](Cc1ccccc1)NC(=O)[C@H](CC(C)C)NC(=O)SCC [Compound 120] | >695
38 | CCOC(=O)/C=C/[C@H](COC(=O)NC(=O)CCl)NC(=O)[C@H](Cc1ccccc1)NC(=O)[C@H](CC(C)C)NC(=O)OCc1ccccc1 [Compound 122] | 5
39 | CC(C)CC(NC(=O)OCc1ccccc1)C(=O)NC(Cc1ccccc1)C(=O)NC(C=C1CCCOC1=O)CCC(N)=O (stereo not drawn) [Compound 130] | >6
40 | CCOC(=O)/C=C/[C@H](CCC(N)=O)NC(=O)[C@H](Cc1ccc(C#N)cc1)NC(=O)[C@H](CC(C)C)NC(=O)OCc1ccccc1 [Compound 132] | >57
41 | CCOC(=O)/C=C/[C@H](CCC(N)=O)NC(=O)[C@@H](NC(=O)[C@H](CC(C)C)NC(=O)OCc1ccccc1)C(C)O (stereo partly drawn) [Compound 134] | >5
42 | CCOC(=O)/C=C/[C@H](CCC(N)=O)NC(=O)[C@H](CC1CCCCC1)NC(=O)[C@H](CC(C)C)NC(=O)OCc1ccccc1 [Compound 135] | >168
43 | CCC[C@H](NC(=O)[C@H](CC(C)C)NC(=O)OCc1ccccc1)C(=O)N[C@H](/C=C/C(=O)OCC)CCC(N)=O [Compound 137] | >1
44 | CCOC(=O)/C=C/[C@H](CCC(N)=O)NC(=O)[C@H](Cc1ccc(CCO)cc1)NC(=O)[C@H](CC(C)C)NC(=O)OCc1ccccc1 [Compound 139] | >91
45 | CCOC(=O)/C=C/[C@H](CCC(N)=O)NC(=O)[C@H](Cc1ccc(COC)cc1)NC(=O)[C@H](CC(C)C)NC(=O)OCc1ccccc1 [Compound 140] | >8
46 | CCOC(=O)/C=C/[C@H](CCC(N)=O)NC(=O)[C@H](CC(C)C)NC(=O)[C@H](CC(C)C)NC(=O)OCc1ccccc1 [Compound 141] | >59
47 | CCOC(=O)/C=C/[C@H](CCC(N)=O)NC(=O)[C@H](CSC)NC(=O)[C@H](CC(C)C)NC(=O)OCc1ccccc1 [Compound 142] | >36
48 | CCOC(=O)/C=C/[C@H](CCC(N)=O)NC(=O)[C@H](CSCC)NC(=O)[C@H](CC(C)C)NC(=O)OCc1ccccc1 [Compound 143] | >32
49 | C/C(=C\[C@H](CCC(N)=O)NC(=O)[C@H](Cc1ccccc1)NC(=O)[C@H](CC(C)C)NC(=O)OCc1ccccc1)C(=O)O [Compound 144] | >3
50 | CCOC(=O)/C=C/[C@H](CCC(N)=O)NC(=O)[C@H](Cc1ccccc1)NC(=O)[C@@H](NC(=O)OCc1ccccc1)C(C)C [Compound 146] | >842
51 | CCOC(=O)C=CC(CCC(N)=O)NC(=O)C(Cc1ccccc1)NC(=O)C(CCc1ccccc1)NC(=O)OCc1ccccc1 (stereo not drawn) [Compound 148] | >1280

From patent US6362166B1, “Antipicornaviral compounds and methods for their use and preparation” (Agouron Pharmaceuticals, Inc., priority 1996, dated 2002)
